Experimental data published in patent US7910622B2, “Modulation of bacterial quorum sensing with synthetic ligands” (Wisconsin Alumni Research Foundation, priority 2007, dated 2011).

The chains behind the UniProt entries cited, without tags or fusion partners.
UniProt P25084, whole entry: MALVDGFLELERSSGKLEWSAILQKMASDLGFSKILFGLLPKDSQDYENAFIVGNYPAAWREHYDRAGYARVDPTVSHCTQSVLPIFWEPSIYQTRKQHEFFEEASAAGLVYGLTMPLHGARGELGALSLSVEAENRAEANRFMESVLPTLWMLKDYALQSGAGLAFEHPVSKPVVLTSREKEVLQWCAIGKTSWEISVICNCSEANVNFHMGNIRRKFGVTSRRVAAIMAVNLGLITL

Biological target: LasR (Pseudomonas aeruginosa, UniProt P25084)
Details: 5 μM synthetic ligand against 7.5 nM OdDHL; E. coli DH5α (pJN105L pSC11); normalized to OdDHL

## CCCCCC(=O)CC(=O)N[C@H]1CCOC1=O [compound 1, N-(3-oxo-octanoyl)-L-homoserine lactone, reference compound]
  E. coli-LasR Inhibition [%]: 50%
